Anti-infective test results gathered from many reports (values: NIAID ChemDB through PubChem).

Common to all: whole-cell or culture tests; organism: Aspergillus niger; read-out: MIC

Two numbers with a dash give a range or band.

compound	strain	read by	value
CCN=C(Nc1ccc(Cl)cc1)N(CC)c1nc2ccc(Cl)cc2s1	-	-	40–60 µg/mL
CCCCCCCCCCCC(=O)NC(CCCN)C(=O)NC(CCCN)C(=O)NC(CCCN)C(N)=O	ATCC 64028	broth dilution	6.25 µg/mL
COc1cc(/C=C2/SC(=O)N(CC(=O)Nc3nc4ccc(SC#N)cc4s3)C2=O)ccc1O	MTCC 282	broth dilution / visual reading	500 µg/mL
CC1CCC(C(C)C)C(OC(=O)C(C)Cl)C1	-	-	12.59 µM
COC(=O)/C=C/c1ccc(OC)cc1	-	broth dilution / resazurin	500 µg/mL
COc1cc(/C=N/O)ccc1OP1(Oc2ccc(/C=N/OCc3ccccc3)cc2OC)=NP(Oc2ccc(/C=N/O)cc2OC)(Oc2ccc(/C=N/OCc3ccccc3)cc2OC)=NP(Oc2ccc(/C=N/O)cc2OC)(Oc2ccc(/C=N/OCc3ccccc3)cc2OC)=N1	-	agar diffusion / agar	>100 µg/mL
N#Cc1c(-c2ccc(Cl)cc2)cc(-c2cc3cc(F)ccc3oc2=O)nc1NS(=O)(=O)c1ccccc1	MTCC 282	turbidity	1000 µg/mL
O=c1cc(Cc2c3ccccc3nc3ccccc23)c2cc(O)ccc2o1	-	agar diffusion / agar	250 µg/mL
CC(=O)O[C@H]1CC[C@@]2(C)C(=CCC3C4CCC(C(=O)/C=C/c5ccc(Cl)cc5Cl)[C@@]4(C)CCC32)C1	MTCC 281	turbidity	350 µg/mL
CCn1sc(=Nc2cccc(OC)c2)n(CC)c1=Nc1cccc(OC)c1	-	-	60–80 µg/mL
N#Cc1ccc2nc(NC(=O)CSc3nnc(-c4ccc5ncccc5c4)o3)sc2c1	-	agar	50 µg/mL
C=C1C(=O)O[C@@H]2/C=C(\C)CC/C=C(\C)CC[C@@H]12	MTCC 1344	agar diffusion	250 µg/mL
CC1(C)S[C@@H]2[C@H](NC(=O)Cc3ccccc3)C(=O)N2[C@H]1C(=O)O	-	MTT / broth dilution	>50 µg/mL
O=C(CSc1nnc(-c2ccc3ncccc3c2)o1)Nc1ccc(Cl)cc1	-	agar	100 µg/mL
O=C(Cc1ccccc1F)N/N=C/c1cc([N+](=O)[O-])ccc1Cl	-	MTT	>150 µM
CC(C)CC1NC(=O)CC(CCCCCCCCC(C)O)OC(=O)C(CC(C)C)NC(=O)C(CC(C)C)NC(=O)C(CC(C)C)NC(=O)C(C(C)C)NC(=O)C(CC(=O)O)NC(=O)C(CC(C)C)NC1=O	ATCC 16404	absorbance	16 µg/mL
CC(=O)O[C@H]1CC[C@@]2(C)C(=CCC3C4CCC(C(=O)/C=C/c5cc(F)cc(F)c5F)[C@@]4(C)CCC32)C1	MTCC 281	turbidity	500 µg/mL
N#Cc1c(-c2cccc(O)c2)cc(-c2cc3cc(F)ccc3oc2=O)nc1NS(=O)(=O)c1ccccc1	MTCC 282	turbidity	100 µg/mL
COc1cc(/C=N/OC(=O)CCl)ccc1OP1(Oc2ccc(/C=N/OC(=O)CCl)cc2OC)=NP(Oc2ccc(/C=N/OC(=O)CCl)cc2OC)(Oc2ccc(/C=N/OC(=O)CCl)cc2OC)=NP(Oc2ccc(/C=N/OC(=O)CCl)cc2OC)(Oc2ccc(/C=N/OC(=O)CCl)cc2OC)=N1	-	agar diffusion / agar	>100 µg/mL
COc1cccc(C(=O)OC2CC(C)CCC2C(C)C)c1	-	-	7.76 µM
N#CSc1ccc2nc(NC(=O)CN3C(=O)S/C(=C/c4cccc(-c5ccco5)c4)C3=O)sc2c1	MTCC 282	broth dilution / visual reading	250 µg/mL
CCOC(=O)C(C#N)C(c1cc2cccc(C)c2n2nnnc12)P(=O)(OCC)OCC	NCIM 545	agar diffusion	10 µg/mL
O=c1[nH][nH]c2c1C(c1ccc(Br)cc1)CC(Cc1ccc3ccccc3c1)=C2	-	agar diffusion	12.5 µg/mL
C[C@H]1[C@H](O)[C@@H](C)/C=C/C=C/C=C/C=C/C=C/C=C/C=C/[C@H](O[C@@H]2O[C@H](C)[C@@H](O)[C@H](N)[C@@H]2O)C[C@@H]2O[C@](O)(C[C@@H](O)C[C@@H](O)CC[C@H](O)[C@@H](O)C[C@@H](O)CC(=O)O[C@H]1C)C[C@H](O)[C@H]2C(=O)O	-	broth dilution / visual reading	125 µg/mL
CCCCCCN(CCCCCC)c1ccc(/C=C2/SC(=O)NC2=O)cc1	MTCC 282	broth dilution / visual reading	>1000 µg/mL
COc1ccc(Br)cc1/C=N/NC(=O)Cc1ccccc1F	-	MTT	>150 µM
CCn1sc(=Nc2ccc(Cl)cc2)n(CC)c1=Nc1ccc(Cl)cc1	-	-	20–40 µg/mL
CC1CCC(C(C)C)C(OC(=O)c2ccccc2Br)C1	-	-	9.12 µM
Cc1cccc(-c2cc(-c3cc4cc(F)ccc4oc3=O)nc(NS(=O)(=O)c3ccccc3)c2C#N)c1	MTCC 282	turbidity	500 µg/mL
CCn1sc(=Nc2ccc(Br)cc2)n(CC)c1=Nc1ccc(Br)cc1	-	-	60–80 µg/mL
CC1CCC(C(C)C)C(OC(=O)c2ccccc2[N+](=O)[O-])C1	-	-	6.76 µM
CCOc1ccc(N=c2sn(CC)c(=Nc3ccc(OCC)cc3)n2CC)cc1	-	-	20–40 µg/mL
CC1CCC(C(C)C)C(OC(=O)/C=C/c2ccc([N+](=O)[O-])cc2)C1	-	-	6.61 µM
COc1cc(C)c2c(=O)cc(CC(C)=O)oc2c1C1O[C@@H](CO)[C@H](O)[C@@H](O)[C@@H]1OC(=O)/C=C\c1ccc(O)cc1	ATCC 6275	agar diffusion	1810 µM
O=C(CSc1nnc(-c2ccc3ncccc3c2)o1)Nc1nc2ccc([N+](=O)[O-])cc2s1	-	agar	25 µg/mL
O=c1[nH][nH]c2c1C(c1ccc(Cl)cc1)CC(Cc1ccc3ccccc3c1)=C2	-	agar diffusion	50 µg/mL
CC1CCC(C(C)C)C(OC(=O)c2ccccc2Cl)C1	-	-	7.94 µM
CCC(=O)O/N=C/c1ccc(OP2(Oc3ccc(/C=N/OC(=O)CC)cc3OC)=NP(Oc3ccc(/C=N/OC(=O)CC)cc3OC)(Oc3ccc(/C=N/OC(=O)CC)cc3OC)=NP(Oc3ccc(/C=N/OC(=O)CC)cc3OC)(Oc3ccc(/C=N/OC(=O)CC)cc3OC)=N2)c(OC)c1	-	agar diffusion / agar	>100 µg/mL
CCCCCCCC(=O)NC(CCCN)C(N)=O	ATCC 64028	broth dilution	>100 µg/mL
CC(C)Cc1ccc(CC2=Cc3[nH][nH]c(=O)c3C(c3ccc(F)cc3)C2)cc1	-	agar diffusion	25 µg/mL
CCCCCCCCCCCCCC(=O)NC(CCCN)C(=O)NC(CCCN)C(=O)NC(CCCN)C(=O)NC(CCCN)C(N)=O	ATCC 64028	broth dilution	6.25 µg/mL
CCN=C(Nc1ccc(C)cc1)N(CC)c1nc2ccc(C)cc2s1	-	-	100–120 µg/mL
CC1CCC(C(C)C)C(OC(=O)c2cccc(Br)c2)C1	-	-	9.12 µM
NC[C@H]1O[C@H](O[C@H]2[C@H](O)[C@@H](O[C@H]3O[C@H](CO)[C@@H](O)[C@H](N)[C@H]3O)[C@H](N)C[C@@H]2N)[C@H](O)[C@@H](O)[C@@H]1O	-	MTT / broth dilution	>50 µg/mL
[Br][Cd][Br].c1cnc2c(SCc3ccncc3)cccc2c1	-	broth dilution / visual reading	>238 µM
CCCCCCCCCCCC(=O)NC(CCCN)C(=O)NC(CCCN)C(N)=O	ATCC 64028	broth dilution	100 µg/mL
Cc1ccc(-c2cc(-c3cc4cc(F)ccc4oc3=O)nc(NS(=O)(=O)c3ccccc3)c2C#N)cc1	MTCC 282	turbidity	500 µg/mL
COc1cc(/C=N/OC(C)=O)ccc1OP1(Oc2ccc(/C=N/OC(C)=O)cc2OC)=NP(Oc2ccc(/C=N/OC(C)=O)cc2OC)(Oc2ccc(/C=N/OC(C)=O)cc2OC)=NP(Oc2ccc(/C=N/OC(C)=O)cc2OC)(Oc2ccc(/C=N/OC(C)=O)cc2OC)=N1	-	agar diffusion / agar	>100 µg/mL

6 of the rows above, restated:

compound,strain,read by,value
CCn1sc(=Nc2ccc(Br)cc2)n(CC)c1=Nc1ccc(Br)cc1,-,-,60–80 µg/mL
CCCCCCCC(=O)NC(CCCN)C(N)=O,ATCC 64028,broth dilution,>100 µg/mL
CC1CCC(C(C)C)C(OC(=O)c2ccccc2Cl)C1,-,-,7.94 µM
[Br][Cd][Br].c1cnc2c(SCc3ccncc3)cccc2c1,-,broth dilution / visual reading,>238 µM
COc1cc(/C=N/OC(=O)CCl)ccc1OP1(Oc2ccc(/C=N/OC(=O)CCl)cc2OC)=NP(Oc2ccc(/C=N/OC(=O)CCl)cc2OC)(Oc2ccc(/C=N/OC(=O)CCl)cc2OC)=NP(Oc2ccc(/C=N/OC(=O)CCl)cc2OC)(Oc2ccc(/C=N/OC(=O)CCl)cc2OC)=N1,-,agar diffusion / agar,>100 µg/mL
CCN=C(Nc1ccc(C)cc1)N(CC)c1nc2ccc(C)cc2s1,-,-,100–120 µg/mL

Rows are shuffled and stem from different studies. Blank or dashed fields: not listed here.